Measured values from article PMC5107951 (Scientific Reports, 2016).

Chains of the proteins cited; added tags and fusions are not shown. Residues count along the entry.
UniProt P36544, 23-502 limits assumed: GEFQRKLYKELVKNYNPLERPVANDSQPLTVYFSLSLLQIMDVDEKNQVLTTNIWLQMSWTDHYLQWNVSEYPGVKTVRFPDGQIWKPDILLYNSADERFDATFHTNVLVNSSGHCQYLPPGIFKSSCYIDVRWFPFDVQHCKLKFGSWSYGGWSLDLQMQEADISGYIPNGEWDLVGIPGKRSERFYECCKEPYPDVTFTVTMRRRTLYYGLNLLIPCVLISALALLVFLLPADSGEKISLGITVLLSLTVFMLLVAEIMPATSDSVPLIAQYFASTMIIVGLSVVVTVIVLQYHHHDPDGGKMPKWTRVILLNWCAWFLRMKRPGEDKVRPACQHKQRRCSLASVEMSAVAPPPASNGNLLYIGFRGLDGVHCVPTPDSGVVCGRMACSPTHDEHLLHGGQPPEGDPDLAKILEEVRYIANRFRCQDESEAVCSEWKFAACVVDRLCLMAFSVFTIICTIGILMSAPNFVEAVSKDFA
UniProt Q8WSF8, 18-236 limits assumed: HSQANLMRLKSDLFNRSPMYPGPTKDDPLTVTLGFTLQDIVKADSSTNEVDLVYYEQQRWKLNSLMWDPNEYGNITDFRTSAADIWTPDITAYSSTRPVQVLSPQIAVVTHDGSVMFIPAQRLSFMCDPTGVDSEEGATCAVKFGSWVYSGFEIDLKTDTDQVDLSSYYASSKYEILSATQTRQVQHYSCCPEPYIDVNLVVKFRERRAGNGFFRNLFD
UniProt P58154, 20-229 limits assumed: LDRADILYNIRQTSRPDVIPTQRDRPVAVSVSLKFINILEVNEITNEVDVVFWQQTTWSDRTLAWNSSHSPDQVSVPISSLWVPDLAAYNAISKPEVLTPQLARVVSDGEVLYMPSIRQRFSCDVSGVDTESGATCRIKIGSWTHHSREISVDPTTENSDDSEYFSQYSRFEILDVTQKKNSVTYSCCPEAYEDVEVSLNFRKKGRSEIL

Key:
[1] = biological target: α7 nAChR (Homo sapiens, UniProt P36544); assay: Radioligand competition with [125I]-labeled αBgt, α7 nAChR in GH4C1 cells; conditions: read-out: IC50 in competition with [125I]-labeled αBgt for α7 nAChR, 0.4 nM toxin-binding sites, pre-incubated 2.5 h at room temperature, pH 8.0, 0.2 nM [125I]-αBgt for 5 min, mean ± s.e.m., two independent experiments
[2] = biological target: Ac-AChBP (Aplysia californica acetylcholine-binding protein) (Aplysia californica, UniProt Q8WSF8); assay: Radioligand competition with [125I]-labeled αBgt, Ac-AChBP; conditions: read-out: IC50 in competition with [125I]-labeled αBgt for Ac-AChBP; 140 nM Ac-AChBP; pre-incubated 2.5 h at room temperature, 20 mM Tris–HCl pH 8.0, 1 mg/mL BSA; 0.2 nM [125I]-αBgt for 5 min; two independent experiments
[3] = biological target: Ls-AChBP (Lymnaea stagnalis acetylcholine-binding protein) (Lymnaea stagnalis, UniProt P58154); assay: Radioligand competition with [125I]-labeled αBgt, Ls-AChBP; conditions: read-out: IC50 in competition with [125I]-labeled αBgt for Ls-AChBP; 2.4 nM Ls-AChBP; pre-incubated 2.5 h at room temperature, 20 mM Tris–HCl pH 8.0, 1 mg/mL BSA; 0.2 nM [125I]-αBgt for 5 min; two independent experiments

Row | SMILES | IC50 [1] | IC50 [2] | IC50 [3]
1 | CC(C)C[C@@H]1NC(=O)[C@H](CCCNC(=N)N)NC(=O)[C@@H]2CSSC[C@H](NC(=O)CN)C(=O)N[C@@H](CSSC[C@@H](C(N)=O)NC(=O)[C@H](Cc3ccc(O)cc3)NC(=O)[C@H](CC(=O)O)NC(=O)[C@@H]3CCCN3C(=O)[C@H](CC(N)=O)NC(=O)[C@H](CC(N)=O)NC1=O)C(=O)N[C@@H](CO)C(=O)N[C@@H](CC(C)C)C(=O)N1CCC[C@H]1C(=O)N1CCC[C@H]1C(=O)N2 [PnIA[R9, L10]] | 270 nM | 47 nM | 18 nM
2 | CC(C)C[C@@H]1NC(=O)[C@H](CO)NC(=O)[C@@H]2CSSC[C@@H](C(N)=O)NC(=O)[C@H](Cc3ccc(O)cc3)NC(=O)[C@H](CC(=O)O)NC(=O)[C@@H]3CCCN3C(=O)[C@H](CC(N)=O)NC(=O)[C@H](CC(N)=O)NC(=O)[C@H](C)NC(=O)[C@H](CCCNC(=N)N)NC(=O)[C@H](CSSC[C@H](NC(=O)CN)C(=O)N2)NC(=O)[C@@H]2CCCN2C(=O)[C@@H]2CCCN2C1=O [PnIA[R9]] | 2400 nM | 41 nM | 58 nM
3 | CC(C)C[C@@H]1NC(=O)[C@H](CCCNC(=N)N)NC(=O)[C@@H]2CSSC[C@H](NC(=O)CN)C(=O)N[C@@H](CSSC[C@@H](C(N)=O)NC(=O)[C@H](Cc3ccc(O)cc3)NC(=O)[C@H](CCCNC(=N)N)NC(=O)[C@@H]3CCCN3C(=O)[C@H](CC(N)=O)NC(=O)[C@H](CC(N)=O)NC1=O)C(=O)N[C@@H](CO)C(=O)N[C@@H](CCCNC(=N)N)C(=O)N1CCC[C@H]1C(=O)N1CCC[C@H]1C(=O)N2 [PnIA[R5, R9, L10, R14]] | 860 nM | 24 nM | 1.22 nM
